Each structure is given as a SMILES string.

For three compounds, IC50 results are on record in publication PMC9965875 (Pharmaceutics, 2023).

The test system of this test is Leishmania (L.) infantum promastigotes (strain MHOM/MA/67/ITMAP-263). The test is described as follows: Anti-promastigote activity (resazurin viability assay, 24 h). The class given is cell-based. As to conditions: read-out: Anti-Promastigote Activity (IC50), 24 h at 25 °C, means of three independent experiments. In general terms: Resazurin is reduced to fluorescent resorufin, in cell work by metabolically active cells.
In the case of `c1ccc2c(NCCCNc3c4c(nc5ccccc35)CCCC4)c3c(nc2c1)CCCC3`, the IC50 – broadly, the concentration needed to halve the response being measured – is > 100 µM.

Turning to `c1ccc2c(NCCNc3c4c(nc5ccccc35)CCCC4)c3c(nc2c1)CCCC3`, the IC50 is > 100 µM.

In the case of `c1ccc2c(NCCCCNc3c4c(nc5ccccc35)CCCC4)c3c(nc2c1)CCCC3`, the IC50 was > 50 µM.
